PubChem BioAssay AID1259414, Drosophila RNAi Screening Center – 2018
Aim: 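Genome-wide screen for host control of endosymbiont load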 (primary screen). System: Drosophila JW18 cells infected with Wolbachia. Knock-down reagent: long dsRNA against Drosophila genes, 0.25 µg dsRNA per well of a 384-well plate. Time to read-out: 5 days. Challenge: cells persistently infected with Wolbachia before knock-down; no added drug. Detection: 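Automated imaging of bacterial rRNA staining divided by host cell count, reported as plate-normalised robust z-score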. Reading the numbers: Wolbachia per cell robust z: higher = more Wolbachia per host cell than the plate typical. Active means: 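Active if absolute robust z reaches 1.5 in two or more of three replicates, leaving out multi- or no-target dsRNAs, genes unexpressed in JW18 and A1 wells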.
In all, the deposit lists about 24,000 reagents; below is a random part of those with a known target gene and a result. Of all reagents, about 1,210 (5%) got an active call. 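Inactive calls also include excluded dsRNAs with several or no targets, genes unexpressed in JW18, and well A1, regardless of score.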 A plus sign joins genes that one reagent is predicted to hit.

fln [DRSC11346]: Wolbachia per cell robust z, rep 1 = -1.28; Wolbachia per cell robust z, rep 2 = -2.48; Wolbachia per cell robust z, rep 3 = 0.545; activity call = inactive
fln [DRSC28670]: Wolbachia per cell robust z, rep 1 = -0.0143; Wolbachia per cell robust z, rep 2 = 0.144; Wolbachia per cell robust z, rep 3 = 0.16; activity call = inactive
CG15646 [DRSC19682]: Wolbachia per cell robust z, rep 1 = -0.00669; Wolbachia per cell robust z, rep 2 = 0.554; Wolbachia per cell robust z, rep 3 = 0.107; activity call = inactive
CG15646 [DRSC41286]: Wolbachia per cell robust z, rep 1 = 0.725; Wolbachia per cell robust z, rep 2 = -0.938; Wolbachia per cell robust z, rep 3 = 0.485; activity call = inactive
CR31824 [DRSC01517]: Wolbachia per cell robust z, rep 1 = 0.921; Wolbachia per cell robust z, rep 2 = 0.657; Wolbachia per cell robust z, rep 3 = -9.35; activity call = inactive
CR31824 [DRSC29841]: Wolbachia per cell robust z, rep 1 = -0.537; Wolbachia per cell robust z, rep 2 = -2.1; Wolbachia per cell robust z, rep 3 = -0.835; activity call = inactive
CG11089 + CG31381 [DRSC14290]: Wolbachia per cell robust z, rep 1 = -1.36; Wolbachia per cell robust z, rep 2 = -0.709; Wolbachia per cell robust z, rep 3 = -1.32; activity call = inactive
CG11089 + CG31381 [DRSC29949]: Wolbachia per cell robust z, rep 1 = 0.385; Wolbachia per cell robust z, rep 2 = -1.16; Wolbachia per cell robust z, rep 3 = 0.677; activity call = inactive
CG17770 + Acam [DRSC14110]: Wolbachia per cell robust z, rep 1 = 0.317; Wolbachia per cell robust z, rep 2 = -1.19; Wolbachia per cell robust z, rep 3 = -4.75; activity call = inactive
CG17770 + Acam [DRSC15264]: Wolbachia per cell robust z, rep 1 = 0.167; Wolbachia per cell robust z, rep 2 = 0.274; Wolbachia per cell robust z, rep 3 = 0.0261; activity call = inactive
CG17770 + Acam [DRSC24252]: Wolbachia per cell robust z, rep 1 = 1.19; Wolbachia per cell robust z, rep 2 = -9.26; Wolbachia per cell robust z, rep 3 = -0.0127; activity call = inactive
CG17770 + Acam [DRSC38964]: Wolbachia per cell robust z, rep 1 = 0.244; Wolbachia per cell robust z, rep 2 = 0.509; Wolbachia per cell robust z, rep 3 = -0.923; activity call = inactive
mwh [DRSC08382]: Wolbachia per cell robust z, rep 1 = 1.05; Wolbachia per cell robust z, rep 2 = 1.4; Wolbachia per cell robust z, rep 3 = 1; activity call = inactive
mwh [DRSC27439]: Wolbachia per cell robust z, rep 1 = -3.32; Wolbachia per cell robust z, rep 2 = 1.52; Wolbachia per cell robust z, rep 3 = -3.28; activity call = active
mwh [DRSC38854]: Wolbachia per cell robust z, rep 1 = -0.808; Wolbachia per cell robust z, rep 2 = 1.49; Wolbachia per cell robust z, rep 3 = 1.4; activity call = inactive
CG17121 [DRSC15176]: Wolbachia per cell robust z, rep 1 = -0.453; Wolbachia per cell robust z, rep 2 = 0.452; Wolbachia per cell robust z, rep 3 = -0.273; activity call = inactive

A run of entries of the results above:
mwh [DRSC08382]: Wolbachia per cell robust z, rep 1 = 1.05; Wolbachia per cell robust z, rep 2 = 1.4; Wolbachia per cell robust z, rep 3 = 1; activity call = inactive
mwh [DRSC27439]: Wolbachia per cell robust z, rep 1 = -3.32; Wolbachia per cell robust z, rep 2 = 1.52; Wolbachia per cell robust z, rep 3 = -3.28; activity call = active
